From patent US7943628B2, “Pyrimidine derivatives” (Pfizer Limited, priority 2005, dated 2011)

Chains of the proteins cited; added tags and fusions are not shown. Lines headed by an entry give the natural chain unless they say otherwise; changes in a name come on top.
UniProt Q9H3N8: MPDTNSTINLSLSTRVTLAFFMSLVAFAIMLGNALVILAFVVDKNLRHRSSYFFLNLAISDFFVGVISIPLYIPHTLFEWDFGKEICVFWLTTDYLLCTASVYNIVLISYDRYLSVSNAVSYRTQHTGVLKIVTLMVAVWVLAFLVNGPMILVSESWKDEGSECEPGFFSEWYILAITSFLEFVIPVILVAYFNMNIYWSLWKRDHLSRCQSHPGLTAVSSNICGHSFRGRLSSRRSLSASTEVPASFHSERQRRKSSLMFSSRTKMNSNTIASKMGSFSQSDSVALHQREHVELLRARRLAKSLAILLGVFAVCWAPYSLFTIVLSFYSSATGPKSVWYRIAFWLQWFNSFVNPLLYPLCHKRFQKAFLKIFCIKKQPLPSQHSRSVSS

Columns and labels:
[1] = target: T1, histamine H4 receptor (Homo sapiens, UniProt Q9H3N8); assay: H4 binding, method 2 ([3H]-histamine binding with Ysi WGA beads on CHO cell membranes); details: Ki calculated from IC50 (Cheng-Prussoff)
T1 construct: expressed in transfected cells; host or cells: CHO cells
Procedure: (§1) Cell pellets from CHO cells expressing the histamine H4 receptor were homogenised in ice-cold 50 mM Tris-HCl/0.5 mM CaCl2 buffer containing a protease inhibitor cocktail (Roche®, United Kingdom) using a ground glass homogeniser. Homogenates were centrifuged at 48000 g for 30 min at 4° C. The membrane pellet was resuspended in fresh buffer and the centrifugation step was repeated as described above. The membrane pellet was resuspended in 50 mM Tris-HCl in the same volume as the original cell pellet. Aliquots of membrane preparations were stored at −80° C. and were used for [^3H]-Histamine binding experiments.
Cell membranes (15 μg/well) were pre-incubated for 120 min shaking at 4° C. with Ysi WGA beads (250 μg/well) in 50 mM Tris-HCl (pH 7.4) followed by centrifugation at 1500 rpm for 5 minutes and resuspension in 50 mM Tris-HCl (pH 7.4). The membrane/bead mixture (15 μg membrane/250 μg beads well) was incubated for 90 minutes shaking at room temperature with 6.5 nM [2,5-^3H] Histamine dihydrochloride (30-60 Ci/mmol) in 50 mM Tris-HCl (pH 7.4), with or without competing H4 ligands. Non-specific binding was defined with 10 μM JNJ7777120. Bound radiolabel was determined using scintillation counting techniques after 90 minutes.

[2] = target: T1, histamine H4 receptor; assay: H4 binding, method 1 ([3H]-histamine filtration binding on CHO cell membranes); details: Ki calculated from IC50 (Cheng-Prussoff)
Procedure: as §1
Cell membranes (20-35 μg/well) were incubated for 90 minutes shaking at room temperature with 3 nM [2,5-^3H]Histamine dihydrochloride (30-60 Ci/mmol) in 50 mM Tris-HCl (pH 7.4), with or without competing H4 ligands. The reaction was terminated by rapid filtration through 0.5% polyethylenimine-soaked Unifilter GF/B plates (Packard) followed by three washes with 1 ml ice-cold 50 mM Tris-HCl. Filters were dried for 45 min at 45° C. and bound radiolabel was determined using scintillation counting techniques. Non-specific binding was defined with 10 μM JNJ7777120.
The compounds of the Examples have been tested in the H4 binding assay described above using either method 1 or method 2.

Ki [1]: 4.11 nM | Ki [2]: 2.85 nM
Compound: CN[C@@H]1CCN(c2cc(NCC(C)C)nc(N)n2)C1 [Example 10, N^4-Isobutyl-6-[(3R)-3-(methyl-amino)pyrrolidin-1-yl]pyrimidine-2,4-diamine]
